The source holds more than one record for some entries. They are shown here; other results are not. The source may hold further records. Values that stand side by side differ for a reason that is not stated; dose, time, organism, isomer or construct need not be as stated for each record.

Chains of the proteins cited; added tags and fusions are not shown. Residues count along the entry.
UniProt I6Y9J2, 56-408 limits assumed: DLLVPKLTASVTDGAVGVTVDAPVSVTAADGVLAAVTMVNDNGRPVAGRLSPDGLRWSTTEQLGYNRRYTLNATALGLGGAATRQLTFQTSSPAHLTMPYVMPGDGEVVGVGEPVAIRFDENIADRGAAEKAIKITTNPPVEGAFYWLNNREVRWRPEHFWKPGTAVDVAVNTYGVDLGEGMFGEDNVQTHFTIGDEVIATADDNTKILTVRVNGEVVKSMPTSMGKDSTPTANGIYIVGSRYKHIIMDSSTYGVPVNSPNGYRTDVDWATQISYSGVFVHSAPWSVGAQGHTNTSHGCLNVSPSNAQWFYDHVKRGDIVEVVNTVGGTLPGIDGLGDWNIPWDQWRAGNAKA

Here are results for three compounds from publication PMC10321483 (Chemical Science, 2023).

Experiment [1] deals with LdtMt2 (Mycobacterium tuberculosis, UniProt I6Y9J2). The conditions noted are these: tested form: triflate.
Experiment [2] has as its system M. tuberculosis (strain H37Rv) growth in THP1 cells. As to the kind of experiment: Intracellular assay: Mtb H37Rv-Luc in THP-1 macrophages. The conditions noted are these: 5 days, extrapolated from dose-response curve.

Take `N#C[s+]1c2ccccc2c2ccccc21`: in experiment [1], the “pIC50 LdtMt2” value is < 4.4 and inactive.

Turning to `COc1ccc(CN2C(=O)C(=O)c3cc(Br)cc(C)c32)cc1OC` [Compound 17], in experiment [2], the MIC50 intracellular is 15.1 ± 0.70 μM, < 50 μM, 15.1 μM.

Turning to `N#Cn1c(-c2cc(F)cc(C(F)(F)F)c2)nc2ccccc21` [Compound 23], the MIC50 intracellular in experiment [2] was 12.0 ± 1.5 μM, < 50 μM, 12.0 μM.
